# Key:
# The chains behind the UniProt entries cited, without tags or fusion partners.
# UniProt P04757, whole entry, looked up: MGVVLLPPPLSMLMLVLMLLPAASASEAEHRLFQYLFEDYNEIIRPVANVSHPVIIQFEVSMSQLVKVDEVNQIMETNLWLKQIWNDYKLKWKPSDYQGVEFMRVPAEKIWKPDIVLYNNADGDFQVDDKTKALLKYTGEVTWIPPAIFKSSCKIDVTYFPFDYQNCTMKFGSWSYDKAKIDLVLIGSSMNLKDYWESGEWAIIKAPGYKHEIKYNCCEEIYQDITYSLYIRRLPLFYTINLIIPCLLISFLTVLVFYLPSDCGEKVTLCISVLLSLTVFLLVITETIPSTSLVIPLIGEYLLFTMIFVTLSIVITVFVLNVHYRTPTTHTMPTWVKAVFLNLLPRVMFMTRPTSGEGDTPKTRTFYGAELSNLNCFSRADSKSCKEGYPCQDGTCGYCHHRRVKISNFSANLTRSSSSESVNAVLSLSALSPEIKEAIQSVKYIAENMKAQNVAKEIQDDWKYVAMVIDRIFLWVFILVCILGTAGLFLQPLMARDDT
# UniProt P12392, whole entry, looked up: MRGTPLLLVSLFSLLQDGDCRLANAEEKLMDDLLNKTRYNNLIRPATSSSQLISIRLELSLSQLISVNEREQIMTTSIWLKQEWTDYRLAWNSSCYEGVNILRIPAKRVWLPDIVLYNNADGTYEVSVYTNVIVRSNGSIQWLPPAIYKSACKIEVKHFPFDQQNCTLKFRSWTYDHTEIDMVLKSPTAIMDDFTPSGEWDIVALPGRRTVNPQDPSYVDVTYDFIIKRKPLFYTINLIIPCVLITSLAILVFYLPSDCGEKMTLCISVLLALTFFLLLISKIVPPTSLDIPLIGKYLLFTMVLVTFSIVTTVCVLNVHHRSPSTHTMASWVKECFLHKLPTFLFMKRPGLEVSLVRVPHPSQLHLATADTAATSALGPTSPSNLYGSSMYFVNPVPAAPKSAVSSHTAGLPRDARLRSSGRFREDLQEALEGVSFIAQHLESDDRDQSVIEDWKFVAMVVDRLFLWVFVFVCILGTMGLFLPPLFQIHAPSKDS
# UniProt P43143, whole entry, looked up: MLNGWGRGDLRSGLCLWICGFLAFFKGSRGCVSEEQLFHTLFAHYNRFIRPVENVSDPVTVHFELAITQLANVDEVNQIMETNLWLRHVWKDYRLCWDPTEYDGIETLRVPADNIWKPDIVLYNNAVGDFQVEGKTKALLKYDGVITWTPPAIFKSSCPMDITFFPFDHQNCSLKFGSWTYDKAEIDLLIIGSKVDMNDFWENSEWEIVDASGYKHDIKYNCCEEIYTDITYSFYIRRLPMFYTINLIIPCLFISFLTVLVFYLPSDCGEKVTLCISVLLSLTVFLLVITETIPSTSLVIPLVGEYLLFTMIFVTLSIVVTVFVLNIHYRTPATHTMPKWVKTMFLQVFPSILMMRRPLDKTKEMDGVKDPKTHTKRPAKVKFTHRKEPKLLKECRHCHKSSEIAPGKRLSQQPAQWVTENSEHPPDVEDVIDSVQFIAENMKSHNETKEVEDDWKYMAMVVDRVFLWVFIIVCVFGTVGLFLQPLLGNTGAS
# UniProt P30926, whole entry, looked up: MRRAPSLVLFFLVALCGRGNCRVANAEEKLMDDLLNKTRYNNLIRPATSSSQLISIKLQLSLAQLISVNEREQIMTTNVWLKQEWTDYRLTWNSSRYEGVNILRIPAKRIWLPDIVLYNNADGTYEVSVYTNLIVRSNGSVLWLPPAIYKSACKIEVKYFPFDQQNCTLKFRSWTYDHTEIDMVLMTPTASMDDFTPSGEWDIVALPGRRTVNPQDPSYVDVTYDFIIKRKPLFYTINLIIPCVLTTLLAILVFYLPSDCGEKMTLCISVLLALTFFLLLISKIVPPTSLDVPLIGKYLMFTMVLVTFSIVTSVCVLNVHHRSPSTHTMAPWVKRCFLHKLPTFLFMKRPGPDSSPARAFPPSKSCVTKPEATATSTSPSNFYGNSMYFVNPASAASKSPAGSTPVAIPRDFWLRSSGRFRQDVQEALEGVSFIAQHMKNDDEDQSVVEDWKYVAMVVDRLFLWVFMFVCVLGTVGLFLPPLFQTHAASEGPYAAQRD
# UniProt P32297, whole entry, looked up: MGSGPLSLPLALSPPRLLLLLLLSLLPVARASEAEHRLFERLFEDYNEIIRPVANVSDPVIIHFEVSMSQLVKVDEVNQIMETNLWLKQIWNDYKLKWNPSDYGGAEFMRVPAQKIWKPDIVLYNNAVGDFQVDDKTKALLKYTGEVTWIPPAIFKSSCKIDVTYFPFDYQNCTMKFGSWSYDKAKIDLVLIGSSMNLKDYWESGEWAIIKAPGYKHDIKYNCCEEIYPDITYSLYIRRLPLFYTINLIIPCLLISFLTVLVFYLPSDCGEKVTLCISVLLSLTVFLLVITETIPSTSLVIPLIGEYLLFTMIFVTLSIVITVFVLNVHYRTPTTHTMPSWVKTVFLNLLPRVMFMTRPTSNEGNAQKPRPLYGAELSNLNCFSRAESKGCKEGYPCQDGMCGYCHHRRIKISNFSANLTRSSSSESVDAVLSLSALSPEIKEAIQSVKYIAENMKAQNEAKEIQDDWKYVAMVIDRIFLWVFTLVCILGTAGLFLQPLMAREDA
# UniProt Q15825, whole entry, looked up: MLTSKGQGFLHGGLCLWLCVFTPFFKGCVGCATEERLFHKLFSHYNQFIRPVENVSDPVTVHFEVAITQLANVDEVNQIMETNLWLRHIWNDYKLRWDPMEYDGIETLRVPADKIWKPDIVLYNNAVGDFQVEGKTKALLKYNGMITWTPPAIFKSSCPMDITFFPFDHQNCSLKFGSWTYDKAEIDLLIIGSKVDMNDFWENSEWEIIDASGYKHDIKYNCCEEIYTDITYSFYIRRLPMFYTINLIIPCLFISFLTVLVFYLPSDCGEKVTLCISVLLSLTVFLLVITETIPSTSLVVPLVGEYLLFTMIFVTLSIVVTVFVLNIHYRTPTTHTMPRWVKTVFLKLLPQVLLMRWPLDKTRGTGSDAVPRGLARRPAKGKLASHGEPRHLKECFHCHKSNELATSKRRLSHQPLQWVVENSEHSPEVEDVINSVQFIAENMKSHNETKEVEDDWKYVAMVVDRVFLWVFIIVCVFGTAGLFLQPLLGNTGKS
# [1] = biological target: T1, Nicotinic acetylcholine receptor alpha6/alpha3/beta4 (Rattus norvegicus) (UniProt P04757+P12392+P43143); assay: Inhibition of rat alpha6/alpha3beta4 nAChR expressed in Xenopus laevis oocytes assessed as inhibition of acetylcholine-induced current response by measuring fold change measured after 5 min by two-electrode voltage-clamp method relative to peIA; type: cell-based; settings: Oocyte
# [2] = biological target: T1, Nicotinic acetylcholine receptor alpha6/alpha3/beta4 (Rattus norvegicus); assay: Inhibition of rat alpha6/alpha3beta4 nAChR expressed in Xenopus laevis oocytes assessed as inhibition of acetylcholine-induced current response measured after 5 min by two-electrode voltage-clamp method relative to peIA; type: cell-based; settings: Oocyte
# [3] = biological target: T2, Nicotinic acetylcholine receptor alpha6/alpha3/beta4 (Homo sapiens, UniProt P30926+P32297+Q15825); assay: Inhibition of human alpha6/alpha3beta4 nAChR expressed in Xenopus laevis oocytes assessed as inhibition of acetylcholine-induced current response measured after 5 min by two-electrode voltage-clamp relative to peIA; type: cell-based; settings: Oocyte
# [4] = biological target: T1, Nicotinic acetylcholine receptor alpha6/alpha3/beta4 (Rattus norvegicus); assay: Inhibition of rat alpha6/alpha3beta4 nAChR expressed in Xenopus laevis oocytes assessed as inhibition of acetylcholine-induced current response at 10 uM in presence of peIA by two-electrode voltage-clamp method relative to control; type: cell-based; settings: Oocyte
# [5] = biological target: T2, Nicotinic acetylcholine receptor alpha6/alpha3/beta4; assay: Inhibition of human alpha6/alpha3beta4 nAChR expressed in Xenopus laevis oocytes assessed as inhibition of acetylcholine-induced current response at 10 uM in presence of peIA by two-electrode voltage-clamp method relative to control; settings: Oocyte
# [6] = biological target: T1, Nicotinic acetylcholine receptor alpha6/alpha3/beta4 (Rattus norvegicus); assay: Inhibition of rat alpha6/alpha3beta4 nAChR expressed in Xenopus laevis oocytes assessed as inhibition of acetylcholine-induced current response at 10 uM measured after 5 min by two-electrode voltage-clamp method relative to control; type: cell-based; settings: Oocyte
# [7] = biological target: T2, Nicotinic acetylcholine receptor alpha6/alpha3/beta4; assay: Inhibition of human alpha6/alpha3beta4 nAChR expressed in Xenopus laevis oocytes assessed as inhibition of acetylcholine-induced current response at 10 uM measured after 5 min by two-electrode voltage-clamp method relative to control; type: cell-based; settings: Oocyte
# [8] = biological target: T2, Nicotinic acetylcholine receptor alpha6/alpha3/beta4; assay: Inhibition of human alpha6/alpha3beta4 nAChR expressed in Xenopus laevis oocytes assessed as inhibition of acetylcholine-induced current response by measuring fold change measured after 5 min by two-electrode voltage-clamp method relative to peIA; type: cell-based; settings: Oocyte
# Rattus norvegicus = species on record: Rattus norvegicus; assay: Selectivity ratio of IC50 for rat alpha6beta4 nAChR to IC50 for rat alpha6/alpha3beta4 nAChR expressed in Xenopus laevis oocytes
SMILES,fold change (FC) [1],deltalogIC50 [2],deltalogIC50 [3],inhibition [4],inhibition [5],inhibition [6],inhibition [7],fold change (FC) [8],Ratio IC50 (Rattus norvegicus)
CC(C)C[C@@H]1NC(=O)[C@H](CCC(=O)O)NC(=O)[C@@H]2CCCN2C(=O)[C@H](Cc2cnc[nH]2)NC(=O)[C@H](CC(N)=O)NC(=O)[C@H](C(C)C)NC(=O)[C@H](CO)NC(=O)[C@@H]2CSSC[C@H](NC(=O)CN)C(=O)N[C@@H](CSSC[C@@H](C(N)=O)NC1=O)C(=O)N[C@@H]([C@@H](C)O)C(=O)N[C@@H](Cc1cnc[nH]1)C(=O)N1CCC[C@H]1C(=O)N[C@@H](C)C(=O)N2,5,> 1.9,> 3,93%,79%,–,–,–,–
CC(C)C[C@@H]1NC(=O)[C@H](CCC(=O)O)NC(=O)[C@@H]2CCCN2C(=O)[C@H](Cc2cnc[nH]2)NC(=O)[C@H](CC(N)=O)NC(=O)[C@H](CC(=O)O)NC(=O)[C@H](CO)NC(=O)[C@@H]2CSSC[C@H](NC(=O)CN)C(=O)N[C@@H](CSSC[C@@H](C(N)=O)NC1=O)C(=O)N[C@@H](CO)C(=O)N[C@@H](Cc1cnc[nH]1)C(=O)N1CCC[C@H]1C(=O)N[C@@H](C)C(=O)N2,–,> 1.9,> 3,87%,86%,> 10%,89%,–,–
CC(C)C[C@@H]1NC(=O)[C@H](CCC(=O)O)NC(=O)[C@@H]2CCCN2C(=O)[C@H](Cc2cnc[nH]2)NC(=O)[C@H](CC(N)=O)NC(=O)[C@H](C(C)C)NC(=O)[C@H](CC(N)=O)NC(=O)[C@@H]2CSSC[C@H](NC(=O)CN)C(=O)N[C@@H](CSSC[C@@H](C(N)=O)NC1=O)C(=O)N[C@@H](CO)C(=O)N[C@@H](Cc1cnc[nH]1)C(=O)N1CCC[C@H]1C(=O)N[C@@H](C)C(=O)N2,> 10,-1,-0.5,–,–,–,–,3,< 2
CC(C)C[C@@H]1NC(=O)[C@H](CCC(=O)O)NC(=O)[C@@H]2CCCN2C(=O)[C@H](Cc2cnc[nH]2)NC(=O)[C@H](CCCNC(=N)N)NC(=O)[C@H](C(C)C)NC(=O)[C@H](CO)NC(=O)[C@@H]2CSSC[C@H](NC(=O)CN)C(=O)N[C@@H](CSSC[C@@H](C(N)=O)NC1=O)C(=O)N[C@@H](CO)C(=O)N[C@@H](Cc1cnc[nH]1)C(=O)N1CCC[C@H]1C(=O)N[C@@H](C)C(=O)N2,5,-0.9,-0.5,–,–,–,–,3,< 2

# Reference: ChEMBL document CHEMBL4811225 (J Med Chem, 2021)
